According to patent publication US20220025003A1 (published 2022):

Molecular target: NS3a (active), Avi-His6-NS3a catalytically active
Experiment: FRET-based protease inhibition assay; ANR-GST fusion

B1: ANR-GST (His6-ANR-GST) (other)
chain: MHHHHHHGSGTGSGELGRLVYLLDGPGYDPIHSDGTGSSPILGYWKIKGLVQPTRLLLEYLEEKYEEHLYERDEGDKWRNKKFELGLEFPNLPYYIDGDVKLTQSMAIIRYIADKHNMLGGCPKERAEISMLEGAVLDIRYGVSRIAYSKDFETLKVDFLSKLPEMLKMFEDRLCHKTYLNGDHVTHPDFMLYDALDVVLYMDPMCLDAFPKLVCFKKRIEAIPQIDKYLKSSKYIAWPLQGWQATFGGGDHPPKSDLVPR
B1 showed an IC50 of under 50 nM.
